Compound potency records, mixed from different reports. Data source: NIAID ChemDB in PubChem.

Shared fields: toxicity to cultured cells; cell line: MT-4; read-out: CC50

An empty or dashed field is not shown. CCn: concentration that lowers growth or viability of the cells by n%. Lines come from different laboratories, so protocols vary.

CNc1nc(Nc2ccc(C#N)cc2)nc(Oc2ccc3ccccc3c2Br)c1C ; read by: MTT ; value: 178 µM
CCc1c(Oc2cc(C)cc(C)c2)n(CC2CCC2)c(=O)[nH]c1=O ; read by: MTT ; value: >100 µg/mL
O=C1NCc2c1ccnc2-c1cc(-c2cc(Br)cc(OC(F)(F)F)c2)n(-c2ccc(F)c(Cl)c2)n1 ; read by: resazurin ; value: >3.3 µM
CCc1cc(NCc2nc3c(C)ccc(C)c3o2)c(=O)[nH]c1C ; value: >0.06 µM
C#CCOCn1c(Cc2cccc(C(F)(F)F)c2)c(C(C)C)c(=O)[nH]c1=O ; value: 46 µM
Cc1c(Cl)nc(Nc2ccc(C#N)cc2)nc1Oc1ccc2ccccc2c1 ; read by: MTT ; value: 221 µM
Cc1ccc(-c2cc(-c3ccc(Cl)cc3)nc(/N=C3\C(=O)Nc4ccc(Cl)cc43)n2)cc1 ; read by: MTT ; value: 8.2 µM
COc1ccccc1C1SCC(=O)N1Cc1ccco1 ; value: 57.78 µM
O=C1NCc2c1cccc2-c1cc(-c2cccc(Cl)c2)n(-c2cccc(C(F)(F)F)c2)n1 ; read by: resazurin ; value: >3.3 µM
Cc1ccc(C(=O)Nc2ccc(S(=O)(=O)O)c3cc(S(=O)(=O)O)cc(S(=O)(=O)O)c23)cc1NC(=O)c1cccc(C(=O)Nc2cc(C(=O)Nc3ccc(S(=O)(=O)O)c4cc(S(=O)(=O)O)cc(S(=O)(=O)O)c34)ccc2C)c1 ; value: >500 µg/mL
CN(C)CC1c2nc(C(=O)NCc3ccc(F)cc3)c(O)c(=O)n2CCN1C(=O)C(=O)N(C)C ; read by: microscopy ; value: >1 µM
COc1ccc(CCNc2nc(NC(=O)Nc3ccc4ccccc4c3)nc(Oc3cc(=O)oc4ccccc34)n2)cc1OC ; read by: MTT ; value: 12.85 µg/mL
CCc1c(Oc2cc(C)cc(C)c2)n(Cc2cccc(C#N)c2)c(=O)[nH]c1=O ; read by: MTT ; value: >100 µg/mL
CN(C)CC1c2nc(C(=O)NCc3ccc(F)cc3)c(O)c(=O)n2CCN1Cc1ccn(C)n1 ; read by: microscopy ; value: >10 µM
CC(=O)Nc1cc(S(=O)(=O)O)c2cccc(S(=O)(=O)O)c2c1 ; value: 414 µM
CC1=NO[C@]2(CC[C@H](C)N3C[C@H]2n2cc(C(=O)NCc4ccc(F)cc4F)c(=O)c(O)c2C3=O)C1O ; read by: luminescence ; value: 50 µM
CCOCn1c(Cc2ccc3ccccc3c2)c(CC)c(=O)[nH]c1=O ; value: 82.2 µM
CCc1c(Cl)nc(Nc2ccc(C#N)cc2)nc1Oc1ccc2cc(C#N)ccc2c1 ; read by: MTT ; value: 197 µM
COc1ccc(CCNc2nc(NC(=S)Nc3ccc4ccccc4c3)nc(Oc3cc(=O)oc4ccccc34)n2)cc1OC ; read by: MTT ; value: 54.6 µg/mL
C[C@H]1CC[C@]2(CC(=O)N(CC(C)(C)C)O2)[C@H]2CN1C(=O)c1c(O)c(=O)c(C(=O)NCc3c(F)cc(F)cc3F)cn12 ; read by: luminescence ; value: 50 µM
COc1ccc(CCNc2nc(NC(=S)Nc3ccccc3)nc(Oc3cc(=O)oc4ccccc34)n2)cc1OC ; read by: MTT ; value: 15.45 µg/mL
CCOCn1c(Cc2cc(C(F)(F)F)cc(C(F)(F)F)c2)c(CC)c(=O)[nH]c1=O ; value: >100 µM
CCOC(=O)CNc1nc(NC(=O)Nc2ccc(OC)cc2)nc(Oc2cc(=O)oc3ccccc23)n1 ; read by: MTT ; value: 85.9 µg/mL
Cc1ccc(-c2cc(-c3ccc(Cl)cc3)nc(/N=C3\C(=O)Nc4ccccc43)n2)cc1 ; read by: MTT ; value: 9.4 µM
CCc1c(Cl)nc(Nc2ccc(C#N)cc2)nc1Oc1ccc2ccccc2c1Cl ; read by: MTT ; value: 169 µM
CCc1c(C(=O)c2cc(C)cc(C)c2)n(CC2CO2)c(=O)[nH]c1=O ; read by: MTT ; value: >100 µg/mL
CC(=O)Nc1cc(S(=O)(=O)O)cc2cc(S(=O)(=O)O)cc(O)c12 ; value: >500 µM
O=C(Nc1cccc(C(=O)Nc2ccc(S(=O)(=O)O)c3cc(S(=O)(=O)O)cc(S(=O)(=O)O)c23)c1)Nc1cccc(C(=O)Nc2ccc(S(=O)(=O)O)c3cc(S(=O)(=O)O)cc(S(=O)(=O)O)c23)c1 ; value: >50 µg/mL
O=C1CSC(c2ccc(-c3cccc4ccccc34)cc2)N1Cc1ccco1 ; value: 39.32 µM
CNc1nc(Nc2ccc(C#N)cc2)nc(Oc2ccc3ccccc3c2)c1C ; read by: MTT ; value: 178 µM
O=C1NCc2c1cccc2-c1cc(-c2cc(Cl)cc(OC(F)F)c2)n(-c2cccnc2)n1 ; read by: resazurin ; value: >3.3 µM
COc1ccc(CCNc2nc(NC(=O)Nc3ccc(Cl)cc3)nc(Oc3cc(=O)oc4ccccc34)n2)cc1OC ; read by: MTT ; value: 35.43 µg/mL
C#CCOCn1c(Cc2c(F)c(F)cc(F)c2F)c(CC)c(=O)[nH]c1=O ; value: 5 µM
O=C1NCc2c1ccnc2-c1cc(-c2cc(Br)cc(OC(F)(F)F)c2)n(-c2cccnc2)n1 ; read by: resazurin ; value: >3.3 µM
Cc1cc(C)cc(Oc2c(C(C)C)c(=O)[nH]c(=O)n2Cc2ccccn2)c1 ; read by: MTT ; value: >100 µg/mL
Nc1nc2c(ncn2[C@H]2CO[C@@H](CCP(=O)(O)O)O2)c(=O)[nH]1 ; value: 90 µg/mL
CCOC(=O)CNc1nc(NC(=O)Nc2ccc(Cl)cc2)nc(Oc2cc(=O)oc3ccccc23)n1 ; read by: MTT ; value: >125 µg/mL
Cc1ccc(C(=O)Nc2ccc(S(=O)(=O)O)c3cc(S(=O)(=O)O)cc(S(=O)(=O)O)c23)cc1NC(=O)Nc1cc(C(=O)Nc2ccc(S(=O)(=O)O)c3cc(S(=O)(=O)O)cc(S(=O)(=O)O)c23)ccc1C ; value: >500 µg/mL
CCc1c(NC)nc(Nc2ccc(C#N)cc2)nc1Oc1ccc2ccccc2c1 ; read by: MTT ; value: 152 µM
CCc1c(Oc2cc(C)cc(C)c2)n(Cc2cc(F)ccc2F)c(=O)[nH]c1=O ; read by: MTT ; value: >100 µg/mL
C[C@@H]1CO[C@@]2(CC[C@H](C)N3C[C@H]2n2cc(C(=O)NCc4c(F)cc(F)cc4F)c(=O)c(O)c2C3=O)O1 ; read by: luminescence ; value: 31.9 µM
COCn1c(Cc2cccc3ccccc23)c(C)c(=O)[nH]c1=O ; value: 183 µM
O=C1CSC(c2c(F)c(F)c(F)c(F)c2F)N1Cc1ccco1 ; value: 82.6 µM
C[C@H]1CC[C@]2(CC(=O)N(C)O2)[C@H]2CN1C(=O)c1c(O)c(=O)c(C(=O)NCc3c(F)cc(F)cc3F)cn12 ; read by: luminescence ; value: 50 µM
O=C1NCc2c1cccc2-c1cc(-c2cc(F)cc(OC(F)(F)F)c2)n(-c2cccnc2)n1 ; read by: resazurin ; value: >3.3 µM
CC(=O)Oc1cc(S(=O)(=O)O)cc2cc(S(=O)(=O)O)cc(OC(C)=O)c12 ; value: >500 µM
Cc1ccccc1C1SCC(=O)N1Cc1ccco1 ; value: 160 µM
COc1cc(Cn2c(Oc3cc(C)cc(C)c3)c(C(C)C)c(=O)[nH]c2=O)cc(OC)c1 ; read by: MTT ; value: >100 µg/mL
COc1ccc(CCNc2nc(NC(=O)Nc3ccc(F)cc3)nc(Oc3cc(=O)oc4ccccc34)n2)cc1OC ; read by: MTT ; value: 19.75 µg/mL
O=C1NC(=O)c2c1cccc2-c1cc(-c2cc(F)cc(OC(F)(F)F)c2)n(-c2cccnc2)n1 ; read by: resazurin ; value: >3.3 µM
Cc1ccc(-c2cc(-c3ccc(Cl)cc3)nc(/N=C3\C(=O)N(CN4CCOCC4)c4ccccc43)n2)cc1 ; read by: MTT ; value: 2.7 µM
CC1=NO[C@@]2(CC[C@H](C)N3C[C@H]2n2cc(C(=O)NCc4ccc(F)cc4F)c(=O)c(O)c2C3=O)N1C ; read by: luminescence ; value: 50 µM
Cc1cc2ccccc2c(C)c1Oc1ccnc(Nc2ccc(C#N)cc2)n1 ; read by: MTT ; value: 303 µM
CS(=O)(=O)N1CCc2nc(C(=O)NCc3ccc(F)cc3)c(O)c(=O)n2CC1 ; read by: microscopy ; value: >1 µM
O=C1NCc2c1cccc2-c1cc(-c2cccc(F)c2F)n(-c2ccc(F)c(Cl)c2)n1 ; read by: resazurin ; value: >3.3 µM
CCOC(=O)CNc1nc(NC(=O)Nc2cccc(C)c2)nc(Oc2cc(=O)oc3ccccc23)n1 ; read by: MTT ; value: 14.23 µg/mL
CNc1nc(Nc2ccc(C#N)cc2)nc(Oc2ccc3cc(C#N)ccc3c2)c1C(C)C ; read by: MTT ; value: 288 µM
C=CCOCn1c(Cc2cc(C(F)(F)F)cc(C(F)(F)F)c2)c(C(C)C)c(=O)[nH]c1=O ; value: >100 µM
Cc1cc(C)cc(C(=O)c2c(C(C)C)c(=O)[nH]c(=O)n2Cc2cc(C(F)(F)F)cc(C(F)(F)F)c2)c1 ; read by: MTT ; value: 8.4 µg/mL
CN1CCn2c(nc(C(=O)NCc3cccc(Cl)c3)c(O)c2=O)C(N(C)C(=O)C(=O)N(C)C)C1 ; read by: microscopy ; value: >1 µM
Cc1ccc(-c2cc(-c3ccc(Cl)cc3)nc(/N=C3\C(=O)N(CN(C)C)c4ccc(Cl)cc43)n2)cc1 ; read by: MTT ; value: 6.8 µM
CCc1cc(CCc2nc3c(Cl)ccc(Cl)c3o2)c(=O)[nH]c1C ; value: >0.06 µM
C[C@H]1CC[C@]2(CC(=O)N(Cc3ccccn3)O2)[C@H]2CN1C(=O)c1c(O)c(=O)c(C(=O)NCc3c(F)cc(F)cc3F)cn12 ; read by: luminescence ; value: 50 µM
Cc1cc(CN2CCn3c(nc(C(=O)NCc4ccc(F)cc4)c(O)c3=O)C2(C)C)on1 ; read by: microscopy ; value: >1 µM
CCCc1c(Cc2cccc3ccccc23)n(COCC)c(=O)[nH]c1=O ; value: 39.8 µM
C[C@H](c1ccccc1)N1O[C@@]2(CC[C@H](C)N3C[C@H]2n2cc(C(=O)NCc4c(F)cc(F)cc4F)c(=O)c(O)c2C3=O)CC1=O ; read by: luminescence ; value: 49.4 µM
Cc1c(Cc2cccc3ccccc23)n(COCc2ccccc2)c(=O)[nH]c1=O ; value: 32.9 µM
CCc1c(NC)nc(Nc2ccc(C#N)cc2)nc1Oc1ccc2ccccc2c1Br ; read by: MTT ; value: 65.14 µM
Cc1cc(C(=O)Nc2ccc(S(=O)(=O)O)c3cc(S(=O)(=O)O)cc(S(=O)(=O)O)c23)ccc1NC(=O)Nc1ccc(C(=O)Nc2ccc(S(=O)(=O)O)c3cc(S(=O)(=O)O)cc(S(=O)(=O)O)c23)cc1C ; value: >500 µg/mL
CC1=N[C@]2(CC[C@H](C)N3C[C@H]2n2cc(C(=O)NCc4ccc(F)cc4F)c(=O)c(O)c2C3=O)ON1 ; read by: luminescence ; value: 50 µM
CCCc1c(Cc2ccc3ccccc3c2)n(COCc2ccccc2)c(=O)[nH]c1=O ; value: 31.8 µM
O=C1NCc2c1cccc2-c1cc(-c2cc(F)cc(Cl)c2)n(-c2cccc(Cl)c2)n1 ; read by: resazurin ; value: >3.3 µM
CCc1c(Cc2ccc3ccccc3c2)n(COCc2ccccc2)c(=O)[nH]c1=O ; value: 34.16 µM
O=C1NCc2c1ccnc2-c1cc(-c2cc(F)cc(OC(F)F)c2)n(-c2ccc(F)c(Cl)c2)n1 ; read by: resazurin ; value: >3.3 µM

Repeating the first 11 entries:

smiles,read by,value
CNc1nc(Nc2ccc(C#N)cc2)nc(Oc2ccc3ccccc3c2Br)c1C,MTT,178 µM
CCc1c(Oc2cc(C)cc(C)c2)n(CC2CCC2)c(=O)[nH]c1=O,MTT,>100 µg/mL
O=C1NCc2c1ccnc2-c1cc(-c2cc(Br)cc(OC(F)(F)F)c2)n(-c2ccc(F)c(Cl)c2)n1,resazurin,>3.3 µM
CCc1cc(NCc2nc3c(C)ccc(C)c3o2)c(=O)[nH]c1C,,>0.06 µM
C#CCOCn1c(Cc2cccc(C(F)(F)F)c2)c(C(C)C)c(=O)[nH]c1=O,,46 µM
Cc1c(Cl)nc(Nc2ccc(C#N)cc2)nc1Oc1ccc2ccccc2c1,MTT,221 µM
Cc1ccc(-c2cc(-c3ccc(Cl)cc3)nc(/N=C3\C(=O)Nc4ccc(Cl)cc43)n2)cc1,MTT,8.2 µM
COc1ccccc1C1SCC(=O)N1Cc1ccco1,,57.78 µM
O=C1NCc2c1cccc2-c1cc(-c2cccc(Cl)c2)n(-c2cccc(C(F)(F)F)c2)n1,resazurin,>3.3 µM
Cc1ccc(C(=O)Nc2ccc(S(=O)(=O)O)c3cc(S(=O)(=O)O)cc(S(=O)(=O)O)c23)cc1NC(=O)c1cccc(C(=O)Nc2cc(C(=O)Nc3ccc(S(=O)(=O)O)c4cc(S(=O)(=O)O)cc(S(=O)(=O)O)c34)ccc2C)c1,,>500 µg/mL
CN(C)CC1c2nc(C(=O)NCc3ccc(F)cc3)c(O)c(=O)n2CCN1C(=O)C(=O)N(C)C,microscopy,>1 µM